A mixed list of measured activities; the numbers were collected in NIAID ChemDB.

All rows: cytotoxicity tests; cells: MT-4; read-out: CC50

CCn is the concentration with n% toxicity to the cells.

| compound | result |
|---|---|
| Cc1cc(O)ccc1O | 127 µg/mL |
| Cc1cc(/C=C2\C(=O)Nc3ccc(S(=O)(=O)N(CC(C)C)C[C@@H](O)[C@H](Cc4ccccc4)NC(=O)O[C@H]4CO[C@H]5OCC[C@H]54)cc32)cc(C)c1O | 100 µM |
| Cc1cn([C@H]2CS[C@@H](CO)O2)c(=O)[nH]c1=O | >410 µM |
| Cc1ccc(NC(=S)NCCc2c(F)cccc2F)nc1 | >1 µg/mL |
| O=C(O)c1ccc(O)c(O)c1 | 75 µg/mL |
| Nc1ncnc2c1ncn2[C@H]1C=C[C@@H](CO)[C@@H]1CO | 40 µg/mL |
| Cc1cn([C@H]2C[C@H](n3cc([N+](=O)[O-])nc3C)[C@@H](CO)O2)c(=O)[nH]c1=O | 70 µM |
| Cc1cc2oc(=O)c(C(=O)/C=C/c3ccccc3[N+](=O)[O-])c(O)c2cc1Cl | 6.94 µg/mL |
| O=c1oc2c(O)c(O)cc3c(=O)oc4c(O)c(O)cc1c4c23 | 80 µg/mL |
| Nc1ccn([C@H]2CO[C@@H](CO)O2)c(=O)n1 | 43.9 µM |
| CC(=O)N[C@H]1C[C@H](n2cc(C)c(=O)[nH]c2=O)O[C@@H]1CO | 10 µM |
| CC(C)[C@H](NC(=O)CCc1nc2ccccc2[nH]1)C(=O)N[C@@H](Cc1ccccc1)[C@@H](O)[C@@H](NCc1ccccc1)C(=O)N[C@H](C(=O)NCc1ccccc1)C(C)C | 14.8 µM |
| Cc1nc(CCCCCCC(=O)c2ccccc2)n2nc(NCCCCCCCCN)ccc12 | >10 µM |
| O=C(O)c1cc(O)c(O)c(O)c1 | 4.3 µg/mL |
| Cc1cc(NC(=S)NCCc2c(F)cccc2F)ncc1Br | >25 µg/mL |
| NOCc1c(Cl)cccc1Cl | 51.9 µg/mL |
| CC(C)(C)OC(=O)N1CCC(=O)C1 | >100 µM |
| NOCc1ccccc1F | 74.7 µg/mL |
| O=CC1OC(=O)c2cc(O)c(O)c(O)c2Oc2cc3c(c(O)c2O)-c2c(cc(Oc4c(C(=O)O)cc(O)c(O)c4O)c(O)c2O)C(=O)OCC(O)C(OC3=O)C(OC(=O)c2cc(O)c(O)c(O)c2)C(C=O)OC(=O)c2cc(O)c(O)c(O)c2Oc2cc3c(c(O)c2O)-c2c(cc(O)c(O)c2O)C(=O)OC(C(O)COC3=O)C1OC(=O)c1cc(O)c(O)c(O)c1 | 96.7 µg/mL |
| CCOCc1cn([C@H]2C=C[C@@H](CO)O2)c(=O)[nH]c1=O | 59 µM |
| O=c1[nH]cnc2c1ncn2[C@H]1CS[C@@H](CO)O1 | >410 µM |
| NOCc1cccc(Cl)c1Cl | 44.8 µg/mL |
| CSc1nc(=O)n([C@H]2C[C@H](N=[N+]=[N-])[C@@H](CO)O2)cc1C | >100 µM |
| Cc1ccc(C(C)C)c2oc(=O)c(C(=O)/C=C/c3ccccc3[N+](=O)[O-])c(O)c12 | 3.06 µg/mL |
| Cc1cn([C@H]2C[C@H](N=[N+]=[N-])[C@@H](COP(=O)(O)OCCS[C@@H]3O[C@H](CO)[C@@H](O)[C@H](O)[C@H]3O)O2)c(=O)[nH]c1=O | >10 µM |
| CCCC(=O)N[C@H]1C[C@H](n2cc(C)c(=O)[nH]c2=O)O[C@@H]1CO | 1000 µM |
| Nc1cn([C@H]2CC[C@@H](CO)O2)c(=O)nc1N | 13 µM |
| CC(C)(C)[Si](OC[C@H]1OC(N2C(=O)NC(=O)/C2=C/c2ccccc2)C[C@@H]1N=[N+]=[N-])(c1ccccc1)c1ccccc1 | ~100 µM |
| COc1cc(/C=C/C(=O)c2c(O)c3cc(Cl)c(C)cc3oc2=O)ccc1O | 9.87 µg/mL |
| O=C(OC[C@H]1O[C@@H](OC(=O)c2cc(O)c(O)c(O)c2)[C@H](OC(=O)c2cc(O)c(O)c(O)c2)[C@@H](OC(=O)c2cc(O)c(O)c(O)c2)[C@@H]1O)c1cc(O)c(O)c(O)c1 | 33.9 µg/mL |
| Cc1cccc(O)c1O | 92 µg/mL |
| NOCc1ccc(Cl)cc1Cl | 48.1 µg/mL |
| COc1cc(/C=C/C(=O)c2c(O)c3c(C)ccc(C(C)C)c3oc2=O)ccc1O | 15.11 µg/mL |
| O=C1O[C@@H]2O[C@@H]3COC(=O)c4cc(O)c(O)c(O)c4-c4c(cc(O)c(O)c4O)C(=O)O[C@H]3[C@H](OC(=O)c3cc(O)c(O)c(O)c3)[C@H]2OC(=O)c2cc(Oc3c(C(=O)O[C@H]4[C@H](OC(=O)c5cc(O)c(O)c(O)c5)O[C@H](CO)[C@@H](O)[C@@H]4OC(=O)c4cc(O)c(O)c(O)c4)cc(O)c(O)c3O)c(O)c(O)c2Oc2cc1cc(O)c2O | 59 µg/mL |
| NC(=O)c1[nH]c2ccc(Cl)cc2c1S(=O)(=O)c1ccccc1 | 200 µM |
| Nc1nc2c(ncn2[C@@H]2CS[C@@H](CO)O2)c(=O)[nH]1 | >372 µM |
| O=S(=O)(O)c1cc(S(=O)(=O)O)c2cc(NS(=O)(=O)c3ccc(-c4ccc(S(=O)(=O)Nc5ccc6cc(S(=O)(=O)O)cc(S(=O)(=O)O)c6c5)cc4)cc3)ccc2c1 | 47 µM |
| CCc1cc(NCc2nc3c(C)ccc(C)c3o2)c(=O)[nH]c1C | >0.06 µM |
| Cc1ccnc(NC(=S)NCCc2c(F)cccc2F)c1 | >5 µg/mL |
| O=C1c2ccccc2N(Cc2ccccc2)S(=O)(=O)N1Cc1ccccc1 | >125 µM |
| O=S(=O)(O)O.O=S(=O)(O)O.O=S(=O)(O)O.O=S(=O)(O)O.O=S(=O)(O)O.O=S(=O)(O)O.OC[C@H]1O[C@@H]2O[C@H]3[C@H](O)[C@@H](O)[C@@H](O[C@H]4[C@H](O)[C@@H](O)[C@@H](O[C@H]5[C@H](O)[C@@H](O)[C@@H](O[C@H]6[C@H](O)[C@@H](O)[C@@H](O[C@H]7[C@H](O)[C@@H](O)[C@@H](O[C@H]1[C@H](O)[C@H]2O)O[C@@H]7CO)O[C@@H]6CO)O[C@@H]5CO)O[C@@H]4CO)O[C@@H]3CO | >2500 µg/mL |
| Nc1ncnc2c1ncn2[C@H]1CO[C@@H](CO)S1 | >395 µM |
| O=CC(OC(=O)c1cc(O)c(O)c(O)c1Oc1cc2c(=O)oc3c(O)c(O)cc4c(=O)oc(c1O)c2c34)C(OC(=O)c1cc(O)c(O)c(O)c1)C1C(=O)Oc2cc(Oc3c(C(=O)O)cc(O)c(O)c3O)c(O)c(O)c2-c2c(cc(O)c(O)c2O)C(=O)OCC1O | 31.9 µg/mL |
| CCOC(=O)c1[nH]c2ccccc2c1S(=O)(=O)c1ccccc1N | >200 µM |
| Cc1cccnc1NC(=S)NCCc1c(F)cccc1F | >25 µg/mL |
| Cc1cn([C@H]2C[C@H](N=[N+]=[N-])[C@@H](COP(=O)(OCCSC(=O)C(C)(C)C)OCCSC(=O)C(C)(C)C)O2)c(=O)[nH]c1=O | >10 µM |
| O=C(O)c1cc(O)ccc1O | 72 µg/mL |
| O=c1ccn([C@H]2C=C(CO)CO2)c(=O)[nH]1 | >100 µg/mL |
| COC(=O)[C@H](C)NP(=O)(OC[C@@H]1C=C[C@H](n2cc(C)c(=O)[nH]c2=O)O1)Oc1ccccc1 | >100 µM |
| O=C1Nc2ccccc2Sc2c1[nH]c1ccccc21 | 96 µM |
| O=C(O)CCc1ccc(O)c(O)c1 | 91 µg/mL |
| Nc1ccn([C@@H]2CO[C@@H](CO)O2)c(=O)n1 | >437 µM |
| Fc1cccc(F)c1CCNC(=S)Nc1cccc(Cl)n1 | >5 µg/mL |
| C/C=C1\C(=O)NC(=O)N1[C@H]1C[C@H](N=[N+]=[N-])[C@@H](CO)O1 | ~100 µM |
| CC(C)(C)OC(=O)NCC(=O)N1CCC(=O)C1 | >100 µM |
| Cc1cn([C@@H]2O[C@H](C3CO[Si](C(C)C)(C(C)C)O[Si](C(C)C)(C(C)C)O3)C3(OS(=O)(=O)C=C3N)[C@H]2O)c(=O)[nH]c1=O | 11.8 µM |
| Cc1nc(CCCCCCC(=O)c2ccccc2)n2nc(NCCCCCCCCNCc3cn([C@H]4C=C[C@@H](CO)O4)c(=O)[nH]c3=O)ccc12 | >10 µM |
| COc1ccc(/C=C/C(=O)c2c(O)c3c(C)ccc(C(C)C)c3oc2=O)cc1 | 82.7 µg/mL |
| CC(C)(C)OC(=O)NC(Cc1ccc(O)cc1)C(=O)N1CCC(=O)C1 | 50 µM |
| O=c1ccn([C@H]2CS[C@@H](CO)O2)c(=O)[nH]1 | >435 µM |
| O=C1c2ccccc2N(CC2CCCCC2)S(=O)(=O)N1Cc1ccccc1 | >125 µM |
| Cc1cn([C@@H]2O[C@H](C(CO[Si](C)(C)C(C)(C)C)O[Si](C)(C)C(C)(C)C)C3(OS(=O)(=O)C=C3N)[C@H]2O[Si](C)(C)C(C)(C)C)c(=O)[nH]c1=O | >136 µM |
| CC(C)[C@H](NC(=O)OCc1ccccc1)C(=O)N[C@@H](Cc1ccccc1)[C@@H](O)[C@@H](NCc1ccccc1)C(=O)N[C@H](C(=O)NCc1ccccc1)C(C)C | >30 µM |
| Cc1ccc(O)c(O)c1 | 98 µg/mL |
| Nc1ccn([C@@H]2CO[C@H](CO)O2)c(=O)n1 | 0.465 µM |
| COc1ccc(/C=C/C(=O)c2c(O)c3cc(Cl)c(C)cc3oc2=O)cc1 | 45.6 µg/mL |
| O=c1[nH]c(=O)n([C@H]2C=C[C@@H](CO)O2)cc1CO | 27.5 µM |
| CC(C)[C@H](NC(=O)[C@H](NCc1ccc(Cl)cc1)[C@H](O)[C@H](Cc1ccccc1)NC(=O)[C@@H](NC(=O)OCc1ccccc1)C(C)(C)C)C(=O)NCc1nc2ccccc2[nH]1 | 5.6 µM |
| CC(=O)OC[C@H]1O[C@@H](SCCOP(=O)(O)OC[C@H]2O[C@@H](n3cc(C)c(=O)[nH]c3=O)C[C@@H]2N=[N+]=[N-])[C@H](OC(C)=O)[C@@H](OC(C)=O)[C@@H]1OC(C)=O | >10 µM |
| CC(C)CCC[C@@H](C)[C@H]1CC[C@H]2[C@@H]3CC[C@H]4C[C@@H](NC(=O)CC=C(c5cc(Cl)c(O)c(C(=O)O)c5)c5cc(Cl)c(O)c(C(=O)O)c5)CC[C@]4(C)[C@H]3CC[C@]12C | 60 µM |
| COc1ccc(/C=C/C(=O)c2c(O)c3cc(Cl)c(C)cc3oc2=O)cc1OC | 59.1 µg/mL |
| CC(C)(C)OC(=O)NC(Cc1ccc(OCc2ccccc2)cc1)C(=O)N1CCC(O)C1 | >100 µM |

Repeating the first 4 entries:

compound | result
Cc1cc(O)ccc1O | 127 µg/mL
Cc1cc(/C=C2\C(=O)Nc3ccc(S(=O)(=O)N(CC(C)C)C[C@@H](O)[C@H](Cc4ccccc4)NC(=O)O[C@H]4CO[C@H]5OCC[C@H]54)cc32)cc(C)c1O | 100 µM
Cc1cn([C@H]2CS[C@@H](CO)O2)c(=O)[nH]c1=O | >410 µM
Cc1ccc(NC(=S)NCCc2c(F)cccc2F)nc1 | >1 µg/mL

Rows are shuffled and stem from different studies.